Assay results as given in publication PMC9610207 (Viruses, 2022).

Sequences of proteins named here, by UniProt entry; tags and fusion partners are left off. A change or cut given only in a name is not applied to a line headed by its entry.
UniProt O00560: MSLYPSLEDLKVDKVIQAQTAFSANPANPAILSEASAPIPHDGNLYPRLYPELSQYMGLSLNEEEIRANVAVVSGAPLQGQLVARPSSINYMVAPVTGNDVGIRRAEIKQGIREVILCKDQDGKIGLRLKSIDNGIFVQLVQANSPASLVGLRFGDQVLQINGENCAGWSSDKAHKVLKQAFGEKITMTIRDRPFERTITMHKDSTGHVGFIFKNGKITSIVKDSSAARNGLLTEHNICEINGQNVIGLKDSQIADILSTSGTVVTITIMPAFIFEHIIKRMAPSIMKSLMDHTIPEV

Molecular target: human Syntenin PDZ1-2 (amino acids 111-213) (human, UniProt O00560 111-213)
Assay: fluorescence polarisation
Conditions: both partners purified

Binder: SADAQSFLNGFAV (FITC-labeled) [FITC-labeled peptide NSP11 4393-4405 of SARS-CoV-2]
- Kd: 133 ± 25 µM
